Measured values taken from paper PMC10983001, “Development of Cytotoxic GW7604-Zeise’s Salt Conjugates as Multitarget Compounds with Selectivity for Estrogen Receptor- Positive Tumor Cells” (Journal of Medicinal Chemistry, 2024).

Experiments:
SKBr3 cells = assay: Real-time live confocal microscopy, SKBr3; format: cell-based, human; settings: SKBr3, 20 μM
MCF-7 cells = assay: Real-time live confocal microscopy, MCF-7; format: cell-based, human; settings: MCF-7, 20 μM

C=CCCCOC(=O)/C=C/c1ccc(C(=C(CC)c2ccccc2)c2ccc(O)cc2)cc1 (mixture of isomers) [GW7604-Pent, Pent-4-en-1-yl (E)-3-(4-((E/Z)-1-(4-hydroxyphenyl)-2-phenylbut-1-en-1-yl)phenyl) Acrylate]
intracellular fluorescence / vesicles (SKBr3 cells): did not cause compound-dependent intracellular fluorescence
intracellular fluorescence / vesicles (MCF-7 cells): did not cause compound-dependent intracellular fluorescence
